Measured values: patent publication US9683231B2, “RNAi-based method of drug screening and characterization” (Massachusetts Institute of Technology, priority 2010, dated 2017)

tested on: Eμ-Mycp19^Arf−/− lymphoma cells expressing shRNAs targeting p53, ATR, Chk1, Chk2, Smg-1, DNAPKcs, Bok and Bim; test: Eight-shRNA signature, probabilistic nearest-neighbors prediction of drug mechanism (GFP competition assay); assay type: cell-based, mouse; details: not given

SMILES | Linkage Ratio
S=P(N1CC1)(N1CC1)N1CC1 [ThioTEPA] | 0.92

same assay, conditions: cluster size with versus without the test compound

SMILES | Linkage Ratio
C[C@@]12C(=O)OC(=O)[C@]1(C)[C@H]1CC[C@@H]2O1 [Cantharidin] | 1.27
N[C@@H](Cc1ccc(N(CCCl)CCCl)cc1)C(=O)O [Melphalan] | 0.91
CN1C(=O)[C@]23CC4=CC=C[C@H](O)[C@H]4N2C(=O)[C@@]1(CO)SS3 [Gliotoxin] | 1.11
COc1cccc2c1C(=O)c1c(O)c3c(c(O)c1C2=O)C[C@@](O)(C(C)=O)C[C@@H]3O[C@H]1C[C@H](N)[C@H](O)[C@H](C)O1 [Daunorubicin] | 0.83
COc1cc2c(cc1O)CC[C@@H]1[C@@H]2CC[C@]2(C)[C@@H](O)CC[C@@H]12 [2-Methoxyestradiol] | 1.08
O=NN(CCCl)C(=O)NCCCl [Carmustine] | 0.95
COc1ccc2c(c1OC)C(=O)O[C@@H]2[C@H]1c2c(cc3c(c2OC)OCO3)CCN1C [Noscapine] | 0.83
N.N.O=C([O-])C1(C(=O)[O-])CCC1.[Pt+2] [Carboplatin] | 0.86
CC[C@]1(O)C[C@@H]2CN(CCc3c([nH]c4ccccc34)[C@@](C(=O)OC)(c3cc4c(cc3OC)N(C)[C@H]3[C@@](O)(C(=O)OC)[C@H](OC(C)=O)[C@]5(CC)C=CCN6CC[C@]43[C@@H]65)C2)C1 [Vinblastine] | 0.95
